# PSTVd loop 6 mutant pool in Nicotiana benthamiana

The measurements come from Wu et al. 2024 (doi:10.1371/journal.ppat.1012142).

PSTVd intermediate strain, loop 6: wild type UGACCGCGAG, pool pattern UNNNCGNNNG; upper and lower strand joined, each 5' to 3', the first 5 letters being the upper strand, closing pairs included.

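Three N. benthamiana plants were inoculated with the whole mutant pool. Progeny were sequenced from the inoculated region (day 5), the margin of the inoculated leaf (day 10) and systemic leaves (day 12).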

Numbers give reads per thousand; 0 = not seen among the reads, higher = more abundant.
Each value is the mean of three plants.
"Pool" is the share in the plasmid pool used as inoculum, on the same scale.
The inoculated region was read from the minus strand, the other sites from the plus strand.
Sequences that differ at fixed positions probably stem from PCR or sequencing errors, and defective variants can be carried along by functional ones.
Samples held 36,220 to 57,551 reads, so the smallest values rest on one or two reads.
Wild type was 20.7 per thousand in the pool and the most common sequence in every sample (inoculated region 195, 198, 203; leaf margin 629, 591, 734; systemic leaves 942, 870, 868).

GUGCCGGCAG (pool 0.0131) gave inoculated region 0; leaf margin 0; systemic leaves 0.
UAACCGAACG (pool 0.105) gave inoculated region 0.589; leaf margin 0.0943; systemic leaves 0.
UAACCGUCUG (pool 0.327) gave inoculated region 0.107; leaf margin 0.00773; systemic leaves 0.
UAAUCGCGCG (pool 0.261) gave inoculated region 0.0591; leaf margin 0.0184; systemic leaves 0.
UACCAGUUAG (pool 0.0131) gave inoculated region 0; leaf margin 0; systemic leaves 0.
UACGCGGUUG (pool 0.235) gave inoculated region 0.0659; leaf margin 0; systemic leaves 0.
UAGCCGUCCG (pool 0.222) gave inoculated region 0.0893; leaf margin 0.0345; systemic leaves 0.
UAGGCGGAGG (pool 0.118) gave inoculated region 0.0966; leaf margin 0; systemic leaves 0.
UAUUCGUACG (pool 0.222) gave inoculated region 0.0463; leaf margin 0.00773; systemic leaves 0.
UCAACGCCUG (pool 0.183) gave inoculated region 0.119; leaf margin 0; systemic leaves 0.
UCUACGACAG (pool 0.340) gave inoculated region 0.0888; leaf margin 0.0261; systemic leaves 0.
UGACCGACGG (pool 0.288) gave inoculated region 0.203; leaf margin 0.758; systemic leaves 0.0872.
UGACGGCGGG (pool 0.0131) gave inoculated region 0; leaf margin 0; systemic leaves 0.
UGAGCGUUAG (pool 0.301) gave inoculated region 0.793; leaf margin 0.0368; systemic leaves 0.
UGCACGUAAG (pool 0.105) gave inoculated region 0.113; leaf margin 0.00920; systemic leaves 0.
UGCGCGAAUG (pool 0.301) gave inoculated region 0.0715; leaf margin 0; systemic leaves 0.
UGCUCGAAAG (pool 0.235) gave inoculated region 0.114; leaf margin 0; systemic leaves 0.
UGCUCGAUGG (pool 0.471) gave inoculated region 0.114; leaf margin 0; systemic leaves 0.
UGCUCGGCGG (pool 0.183) gave inoculated region 0.0835; leaf margin 0; systemic leaves 0.
UGCUCGUUUG (pool 0.431) gave inoculated region 0.0958; leaf margin 0.0261; systemic leaves 0.
UGGCCGAGGG (pool 0.301) gave inoculated region 0.180; leaf margin 0.0261; systemic leaves 0.
UGGGCGCAAG (pool 0.0784) gave inoculated region 0.102; leaf margin 0.0232; systemic leaves 0.
UGUACGCAUG (pool 0.118) gave inoculated region 0.103; leaf margin 0.00920; systemic leaves 0.
UGUACGGCCG (pool 0.301) gave inoculated region 0.0886; leaf margin 0.00773; systemic leaves 0.
UGUGCGCGCG (pool 0.275) gave inoculated region 0.0768; leaf margin 0.0155; systemic leaves 0.
UGUGCGGGUG (pool 0.183) gave inoculated region 0.0955; leaf margin 0; systemic leaves 0.
UUCUCGCAUG (pool 0.327) gave inoculated region 0.0648; leaf margin 0; systemic leaves 0.
UUUCCGAGGG (pool 0.248) gave inoculated region 0.0708; leaf margin 0; systemic leaves 0.
UUUUCGAAGG (pool 0.144) gave inoculated region 0.0784; leaf margin 0; systemic leaves 0.